{"source": "PubChem BioAssay AID1899", "about": "(The Scripps Research Institute Molecular Screening Center, 2009)", "note": "Only a part is listed here, and it is no random draw. Activity calls are given as the source filed them.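 How the source made its calls: active means inhibition above the mean of all tested compounds plus 3 SD, set per screening campaign (cut at about 45% in these data); inactive means the rest.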"}
{"test_system": "HCV core protein (residues 1-106) dimerization", "test": "blockers of core106 self-association – biochemical, TR-FRET, high-throughput, primary screen (AID 1899)", "conditions": "TR-FRET GST/Flag-core106 dimerization, 1536-well; at 5 µM; active compounds read high", "method_in_brief": "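Assay system – GST-tagged and Flag-tagged HCV core protein residues 1-106 · Quantity – core106 proteins, GST 13.5 nM and Flag 17 nM · Benchmarks – unlabelled core106 and no-GST-core106 wells · Read-out basis – percent inhibition of core106 dimerization signal · Detection – time-resolved FRET, ex 340 nm, em 617 and 671 nm · Schedule – 4 h at 22.5 °C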"}
{"smiles": "Cc1cc(SC(NC=O)C(Cl)(Cl)Cl)ncn1", "note": "(stereo not drawn)", "inhibition": "inactive: -13.2%"}
{"smiles": "O=P(Nc1ccccn1)(c1cccc2ccccc12)c1cccc2ccccc12", "inhibition": "inactive: 15.4%"}
{"smiles": "CCOC(=O)Nc1cccc([As](=O)(O)O)c1", "inhibition": "inactive: -3.28%"}
{"smiles": "Cc1cc(SC(NC(=O)c2ccccc2)C(Cl)(Cl)Cl)nc(C(C)C)n1", "note": "(stereo not drawn)", "inhibition": "inactive: 0.94%"}
{"smiles": "CCOC(=O)Nc1ccc([As](=O)(O)O)c(O)c1", "inhibition": "inactive: -0.43%"}
{"smiles": "CCC(C)N(CC(C)C)C(=S)SC(NC(C)=O)C(Cl)(Cl)Cl", "note": "(stereo not drawn)", "inhibition": "inactive: 2.24%"}
{"smiles": "CCOC(=O)c1ccc(NC(=O)C(C)(CCl)SC)cc1", "note": "(stereo not drawn)", "inhibition": "inactive: -13.1%"}
{"smiles": "O=C(OC1CN2CCC1CC2)c1cccc([N+](=O)[O-])c1", "note": "(stereo not drawn)", "inhibition": "inactive: -1.59%"}
{"smiles": "O=C(Nc1ccncc1[N+](=O)[O-])c1ccc([N+](=O)[O-])cc1[N+](=O)[O-]", "inhibition": "inactive: -2.73%"}
{"smiles": "O=C(COc1ccccc1)OC1CN2CCC1CC2", "note": "(stereo not drawn)", "inhibition": "inactive: -5.29%"}
{"smiles": "COP1(=S)c2c(C)nn(CCC#N)c2N=C(c2ccc(F)cc2)N1C", "note": "(stereo not drawn)", "inhibition": "inactive: -10.2%"}
{"smiles": "COc1ccc(N/C(=N/P(=O)(N2CCOCC2)N2CCOCC2)N2CCOCC2)cc1", "inhibition": "inactive: 2.82%"}
{"smiles": "COc1cc(I)ccc1[As](=O)(O)O", "inhibition": "inactive: -2.62%"}
{"smiles": "COc1ccc2nc(NP(=O)(c3ccccc3)c3ccccc3)sc2c1", "inhibition": "inactive: 1.68%"}
{"smiles": "Cc1cc(=O)[nH]c(N[N+](=O)[O-])n1", "inhibition": "inactive: -2.97%"}
{"smiles": "O=C(OC1CN2CCC1CC2)C12CC3CC(CC(C3)C1)C2", "note": "(stereo not drawn)", "inhibition": "inactive: -9.83%"}
{"smiles": "Cc1c2c(nc3ccccc13)SC(C(Cl)Cl)C2", "note": "(stereo not drawn)", "inhibition": "inactive: 11.2%"}
{"smiles": "O=[N+]([O-])c1cc([N+](=O)[O-])c(-c2ccn[nH]2)s1", "inhibition": "inactive: -5.09%"}
{"smiles": "CC(C)NC(=O)NP(=O)(Oc1ccccc1)Oc1ccccc1", "inhibition": "inactive: -1.08%"}
{"smiles": "CCN(CC)C(=S)SC(NC=O)C(Cl)(Cl)Cl", "note": "(stereo not drawn)", "inhibition": "inactive: -1.75%"}
{"smiles": "CC(C)c1ccc(OP(=O)(Nc2ccccn2)Oc2ccccc2F)cc1", "note": "(stereo not drawn)", "inhibition": "inactive: 2.95%"}
{"smiles": "ClCCSc1nnc(-c2cccnc2)o1", "inhibition": "inactive: -1.92%"}
{"smiles": "Cc1ccc2nc3c(c(C)c2c1)CC(C(Cl)Cl)S3", "note": "(stereo not drawn)", "inhibition": "inactive: 14.1%"}
{"smiles": "Cc1ccc(OP(=O)(Nc2ccc([N+](=O)[O-])cn2)Oc2ccc(C)cc2)cc1", "inhibition": "inactive: 12.4%"}
{"smiles": "C[As](=O)(O)c1cccc(C(=O)O)c1", "inhibition": "inactive: -18.9%"}
{"smiles": "O=[As](O)(c1ccc(O)cc1)c1ccccc1O", "inhibition": "inactive: 0.38%"}
{"smiles": "CN(C(=O)Cc1ccc(Cl)c(Cl)c1)[C@H]1CC[C@@]2(CCCO2)C[C@@H]1N1CCCC1", "inhibition": "inactive: 3.19%"}
{"smiles": "O=[N+]([O-])c1ccc2c(c1)nnn2O", "inhibition": "inactive: 0.68%"}
